Measured values from several laboratories, pooled; numbers as filed in NIAID ChemDB.

Shared fields: whole-cell or culture tests; species: HIV-1

Fold resistance has wild type as its base.

compound	endpoint	method	strain	cells	mutations	result
Cc1cc(C#N)cc(C(=O)c2cc(Cl)ccc2OCC(=O)Nc2ccc(S(N)(=O)=O)nc2C)c1	fold resistance	β-galactosidase	HXB2	HeLa + HELA CD4+	RT-G190A	~1
COc1cc(Cl)ccc1C(=O)NC(C)(C)CNC[C@H](O)[C@@]12CC[C@]3(C)[C@H](CC[C@@H]4[C@@]5(C)CC[C@H](OC(=O)[C@H]6C[C@@H](C(=O)O)C6(C)C)C(C)(C)[C@@H]5CC[C@]43C)C1=C(C(C)C)C(=O)C2	EC50	p24 / ELISA	92HT599	MT-2		<1 µM
Cc1cc(S(N)(=O)=O)ccc1NC(=O)COc1ccc(Cl)cc1C(=O)c1cc(F)cc(C(F)(F)F)c1	fold resistance	β-galactosidase	HXB2	HeLa + HELA CD4+	RT-V108I	~1
Cc1cc(C(=O)NC(C)(C)CNC(=O)C[C@@]23CC[C@]4(C)[C@H](CC[C@@H]5[C@@]6(C)CC[C@H](OC(=O)[C@H]7C[C@@H](C(=O)O)C7(C)C)C(C)(C)[C@@H]6CC[C@]54C)C2=C(C(C)C)C(=O)C3)n[nH]1	EC50	p24 / ELISA	92HT599	MT-2		<1 µM
Cc1cc(S(N)(=O)=O)ccc1NC(=O)COc1ccc(Cl)cc1C(=O)c1cccc(C#N)n1	fold resistance	β-galactosidase	HXB2	HeLa + HELA CD4+	RT-V106I	~1
COc1ccnc2[nH]cc(C(=O)C(=O)N3CCN(C(=O)c4ccccc4)C[C@H]3C)c12	EC99	luciferase	6535	TZM-bl		0.1 µM
O=C1Nc2ccc(F)c(F)c2[C@@](C#CC2CC2)(C(F)(F)F)N1	EC90				RT-K103N P225H	~0.035 µM
Cc1cc(S(N)(=O)=O)ccc1NC(=O)COc1ccc(Cl)cc1C(=O)c1cc(Cl)cc(C#N)c1	fold resistance	β-galactosidase	HXB2	HeLa + HELA CD4+	RT-P236L	~1
CC(C)C1=C2[C@H]3CC[C@@H]4[C@@]5(C)CC[C@H](OC(=O)[C@H]6C[C@@H](C(=O)O)C6(C)C)C(C)(C)[C@@H]5CC[C@@]4(C)[C@]3(C)CC[C@@]2(CCNC(=O)c2ccc(CN3CCN(C)CC3)cc2)CC1=O	EC50	p24 / ELISA	92HT599	MT-2		<1 µM
CC(C)[C@H](NC(=O)OCc1ccccn1)C(=O)N[C@@H](Cc1ccccc1)[C@@H](O)C[C@H](Cc1ccccc1)NC(=O)OCc1cccnc1	EC95	p24	NL4-3	MT-4	PR-L10R M46I V82T	1.5 µM
Cc1cc(S(N)(=O)=O)ccc1NC(=O)COc1ccc(Cl)cc1C(=O)c1cc(F)cc(C#N)c1	fold resistance	cytopathic effect / propidium iodide	Nevirapine-resistant (RT Y181C)	MT-4	RT-Y181C	~1
CC(C)C1=C2[C@H]3CC[C@@H]4[C@@]5(C)CC[C@H](OC(=O)[C@H]6C[C@@H](C(=O)O)C6(C)C)C(C)(C)[C@@H]5CC[C@@]4(C)[C@]3(C)CC[C@@]2(CCNCc2ccc(Cl)cn2)CC1=O	EC50	p24 / ELISA	92HT599	MT-2		<1 µM
Cc1cc(C#N)cc(C(=O)c2cc(Cl)ccc2OCC(=O)Nc2ccc(OCCCN3CC=CC3)cc2C)c1	fold resistance	β-galactosidase	HXB2	HeLa + HELA CD4+	RT-G190A	~1
CC(C)C1=C2[C@H]3CC[C@@H]4[C@@]5(C)CC[C@H](OC(=O)[C@H]6C[C@@H](C(=O)O)C6(C)C)C(C)(C)[C@@H]5CC[C@@]4(C)[C@]3(C)CC[C@@]2(CC(=O)NCC(C)(C)NC(=O)CN2CCOCC2)CC1=O	EC50	p24 / ELISA	92HT599	MT-2		<1 µM
COc1ccc(S(=O)(=O)N(CC(C)C)C[C@@H](O)CCN(CCc2ccccc2)C(=O)O[C@H]2CCOC2)cc1	EC90	p24	IIIB	CEM		1 µM
Cc1cc2cn[nH]c2cc1NC(=O)COc1ccc(Cl)cc1C(=O)c1cccc(C#N)c1	fold resistance	β-galactosidase	HXB2	HeLa + HELA CD4+	RT-V106I	~1
COc1ccnc2[nH]cc(C(=O)C(=O)N3C4CCCC3CN(C(=O)c3ccccc3)C4)c12	EC99	luciferase	AC10	TZM-bl		22 µM
CCc1cc(C#N)cc(C(=O)c2cc(Cl)ccc2OCC(=O)Nc2ccc(S(N)(=O)=O)cc2C)c1	fold resistance	β-galactosidase	HXB2	HeLa + HELA CD4+	RT-G190A	~1
CC(C)C1=C2[C@H]3CC[C@@H]4[C@@]5(C)CC[C@H](OC(=O)[C@H]6C[C@@H](C(=O)O)C6(C)C)C(C)(C)[C@@H]5CC[C@@]4(C)[C@]3(C)CC[C@@]2([C@@H](O)CNC(=O)C(C)(C)NC(=O)c2ccc(Cl)cc2OCCN2CCCCC2)CC1=O	EC50	p24 / ELISA	92HT599	MT-2		<1 µM
CC(C)CN(CC(O)CN1CSC[C@H]1C(=O)NC(C)(C)C)S(=O)(=O)c1ccccc1	EC90	p24	IIIB	CEM		1 µM
O=C1Nc2ccc(Cl)cc2[C@@](/C=C/C2CC2)(C(F)(F)F)N1	EC90				RT-K103N P225H	~0.15 µM
COC1CCC(S(=O)(=O)N(CC2CCCC2)C[C@@H](O)CN(CCc2ccccc2)C(=O)c2ccccc2)CO1	EC90	p24	IIIB	CEM		1 µM
CC(C)C1=C2[C@H]3CC[C@@H]4[C@@]5(C)CC[C@H](OC(=O)[C@H]6C[C@@H](C(=O)O)C6(C)C)C(C)(C)[C@@H]5CC[C@@]4(C)[C@]3(C)CC[C@@]2(CCNCC(C)(CCCN)NC(=O)c2ccc(Cl)cc2)CC1=O	EC50	p24 / ELISA	92HT599	MT-2		<1 µM
COc1ccc(S(=O)(=O)N(Cc2ccccc2)CC(F)(F)C(=O)[C@@H](Cc2ccccc2)NC(=O)O[C@H]2CCOC2)cc1	EC90	p24	IIIB	CEM		1 µM
Cc1nc2ccc(C(=O)NCC[C@@]34CC[C@]5(C)[C@H](CC[C@@H]6[C@@]7(C)CC[C@H](OC(=O)[C@H]8C[C@@H](C(=O)O)C8(C)C)C(C)(C)[C@@H]7CC[C@]65C)C3=C(C(C)C)C(=O)C4)cc2[nH]1	EC50	p24 / ELISA	92HT599	MT-2		<1 µM

The first 2 rows once more:

compound | endpoint | method | strain | cells | mutations | result
Cc1cc(C#N)cc(C(=O)c2cc(Cl)ccc2OCC(=O)Nc2ccc(S(N)(=O)=O)nc2C)c1 | fold resistance | β-galactosidase | HXB2 | HeLa + HELA CD4+ | RT-G190A | ~1
COc1cc(Cl)ccc1C(=O)NC(C)(C)CNC[C@H](O)[C@@]12CC[C@]3(C)[C@H](CC[C@@H]4[C@@]5(C)CC[C@H](OC(=O)[C@H]6C[C@@H](C(=O)O)C6(C)C)C(C)(C)[C@@H]5CC[C@]43C)C1=C(C(C)C)C(=O)C2 | EC50 | p24 / ELISA | 92HT599 | MT-2 |  | <1 µM

Neighbouring rows are from separate reports. An empty or dashed field is not shown. ECn is the concentration giving n% inhibition of infection, replication or growth.